Calls of active or inactive are those of the source.
What was measured:
Saccharomyces cerevisiae [1] = conditions: DSY 416, 25 uM
Saccharomyces cerevisiae [2] = conditions: DSY 415, 25 uM
Saccharomyces cerevisiae [3] = conditions: DSY 417, 25 uM
Saccharomyces cerevisiae [4] = conditions: DSY 426, 25 uM
Saccharomyces cerevisiae [5] = conditions: DSY 390, 25 uM

Measured: MIC

CC(C)[C@@H]1OC(=O)[C@@H](Cc2ccccc2)N(C)C(=O)[C@H](C(C)C)OC(=O)[C@@H](Cc2ccccc2)N(C)C(=O)[C@H](C(C)C)OC(=O)[C@@H](Cc2ccccc2)N(C)C1=O [BEAUVERICIN]
inactive: all assays above
